Data taken from the supplement of paper PMC9931576.
Human monoclonal antibodies against the spike receptor-binding domain (heavy:light variable regions). IC50 against pseudoviruses bearing the spike of naturally observed variants; lower = stronger; >10 µg/ml means not reached at the top dose. No active / inactive call. The stated detection limit is 0.0005 µg/ml; values near or below 0.001 µg/ml lie at the floor of the assay.

How the values were obtained:
Assay in all cases: pseudovirus neutralization IC50; higher = weaker neutralization
[1] = target: SARS-CoV-2 Omicron BA.1 spike pseudovirus
Method: (§1)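 Single-round VSV luciferase pseudovirus mixed with antibody dilutions for 1 h and put on Huh-7 cells for about a day; IC50 from the dose curve.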

[2] = target: SARS-CoV-2 Omicron BA.2 spike pseudovirus
Method: as §1

[3] = target: SARS-CoV-2 Omicron BA.2.75 spike pseudovirus
Method: as §1

[4] = target: SARS-CoV-2 Omicron BA.5 spike pseudovirus
Method: as §1

[5] = target: SARS-CoV-2 Omicron BQ.1.1 spike pseudovirus
Method: as §1

[6] = target: SARS-CoV-2 Omicron XBB spike pseudovirus
Method: as §1

[7] = target: SARS-CoV-2 early D614G spike pseudovirus
Method: as §1

Row | Binder | pseudovirus neutralization IC50 [1] | pseudovirus neutralization IC50 [2] | pseudovirus neutralization IC50 [3] | pseudovirus neutralization IC50 [4] | pseudovirus neutralization IC50 [5] | pseudovirus neutralization IC50 [6] | pseudovirus neutralization IC50 [7]
1 | BD55-942 (protein) chain 1: EVQLVQSGAEVKKPGESLKISCKGSGYSFTTYWIAWVRQMPGKGLEWMGIIYPYDSDTRYSPSSHGQVTISADKSITTAYLQWSSLKASDTAIYYCVRQTTLNTHLDYWGQGTLVTVSS chain 2: QSVLTQPPSASGTPGQRVTISCSGSSSNIGSNTVNWYQQLPGTAPKLLIYSNKERPSGVPDRFSGSKSGTSASLAISGLQSEDEADYYCGAWDDSLNGVVFGGGTKLTVL | > 10 µg/mL | > 10 µg/mL | > 10 µg/mL | > 10 µg/mL | > 10 µg/mL | > 10 µg/mL | > 10 µg/mL
2 | BD55-944 (protein) chain 1: EVQLVESGGGLLQPGGSLSLSCAASGIIVSRNYMSWVRQAPGKGLEWVSIIYSGGTTYYANFAKGRFTISRDNSKNTLYLQMNSLRAEDTAVYYCARDVHGSGRLDYWGQGTLVTVSS chain 2: QSALTQPASVSGSPGQSITISCTGTSSDVGGYNFVSWYQQHPGKAPKLMIYDVNNRPSGVSDRFSGSKSGNTASLTISGLQAEDEADYYCNSYTTIDTVEFGGGTKLTVL | > 10 µg/mL | > 10 µg/mL | > 10 µg/mL | > 10 µg/mL | > 10 µg/mL | > 10 µg/mL | > 10 µg/mL
3 | BD55-948 (protein) chain 1: QVHLVQSGAEVKKPGASVKVSCKASGYTFTTYGISWVRQAPGQGLEWMGWIIPYNGATNYAQNLQGRVTMTTDTSTTTAYMELRSLRSDDTALYYCARVGAYYDRSGHFTAENENFQHWGQGTLVTVSS chain 2: QSVLTQPPSVSGAPGQRVTISCTGSSSNIGAGYDVHWYQQLPGTAPKVLIYGNSNRPSGVPDRFSGSKSGTSASLAITGLQAEDEADYYCQSYDSSLSGHVVFGGGTKLTVL | 1.08 µg/mL | > 10 µg/mL | > 10 µg/mL | > 10 µg/mL | > 10 µg/mL | > 10 µg/mL | 0.162 µg/mL
4 | XG2v-004 (protein) chain 1: EVQLVQSGAEVKKPGESLKISCKGSGYSFTSYWIGWVRQMPGKGLEWMGIIYPGDSDTRYSPSFQGQVTISADKSISTAYLQWSSLKASDTAMYYCATGYYGSGSYSAFDIWGQGTMVTVSS chain 2: QSVLTQPPSASGTPGQRVTISCSGSSSNIGSNTVNWYQQLPGTAPKLLIYNNNQRPSGVPDRFSGSKSGTSASLAISGLQSEDEADYYCAAWDDSLNGRWVFGGGTK | > 10 µg/mL | > 10 µg/mL | > 10 µg/mL | > 10 µg/mL | > 10 µg/mL | > 10 µg/mL | > 10 µg/mL
5 | XG2v-006 (protein) chain 1: EVQLVESGGGLIQPGRSLRLSCAASGFTVSSEYMSWVRQAPGKGLECVSVIYSGGSTYYADSVRGRFTISRDNSKNTLYLQMNSLRAEDTAVYFCARDGGPLWFGELGGMDAWGQGTTVTVSS chain 2: DIQMTQSPSSLSASVGDRVTITCRASQSISSYLNWYQQKPGKAPKLLIYAASNFQSGVPSRFSGSGSGTDFTLTINSLQPEDFATYYCQQSYSPLRTFGQGTKVEIK | 0.657 µg/mL | 0.777 µg/mL | 0.818 µg/mL | > 10 µg/mL | > 10 µg/mL | > 10 µg/mL | 0.843 µg/mL
6 | XG2v-033 (protein) chain 1: EVQLVESGGGVVRPGGSLRLSCAASGFTFDDYGMNWVRQAPGKGLEWVSGINWNGGRTGYADSVKGRFTISRDNAKNSLYLQMNSLRAEDTALYHCARVYCGNDCYSLVLAPNDAFDIWGQGTMVTVSS chain 2: QSVLTQPPSASGTPGQRVTISCSGSSSNIGSNTVNWYQQLPGTAPKLLIYNNNQRPSGVPDRFSASKSGTSASLAISGLQSEDEADYYCAAWDDSLNGPVFGGGTK | 3.4 µg/mL | 3 µg/mL | 1.82 µg/mL | 4.87 µg/mL | 4.96 µg/mL | 5 µg/mL | 0.148 µg/mL
